# Test results taken from patent US8809343B2, “Pyrimidine derivative, preparation method and use thereof” (Fudan University, priority 2008, dated 2014).
# Test system: HIV-1 IIIB strain
# Test: Anti-HIV activity: protection of HIV-infected MT-4 cells from virus-induced cell lesions
# Assay type: cell-based
# Conditions: Table 1
# Experimental: Anti-virus activity of cells in vitro was determined by Rega Institute for Medical of […] Katholleke University, consisting mainly: inhibitory activity towards HIV-infected MT-4 cells and cell toxicity. The method is described below: exert the compound on the HIV-infected ME-4 cells, and determine the protection of the drug on the cell lesions induced by HIV at varied HIV-infection intervals, calculate the half effective concentration IC50, the required concentration that protect 50% of cells from cell lesions induced by HIV. Toxicity determination is carried out in parallel with anti-HIV activity experiments, also in the cultured MT-4 cells, determine the CC50, the concentration that leads 50% of uninfected cells to cell lesions, and calculate the selectivity index SI=CC50/IC50 with the MTT method.
# Anti-HIV activity of various compounds is monitored by the inhibitory efficiency of drugs on the cell lesions induced by HIV. Carry out cell culture with MT-4 cells. The adopted virus strains are HIV-1 IIIB strain and drug-resistant viral strain of […].
# The detailed operation is as follows: the compound is dissolved with DMSO or water and diluted with phosphate buffer saline, 3×10^5 MT-4 cells are cultured with 100 μL various concentrations of compounds for 1 h, then 100 μL suitable virus dilution is added to the compound, and the cells are cultured at 37° C. for 1 h. After being washed for 3 times, the cells are suspended again in the culture media containing or not compounds individually. Subsequently, the cells are transferred to the atmosphere containing 5% CO2 and cultured for 7 days at 37° C., and culture media containing or not compounds are used to replace or supplement the culture solution on the third day after infection. Kinds of culture conditions should be duplicated. The cell lesions caused by virus are monitored with reverse light microscopy everyday. Typically, the virus dilution applied in the present experiments generally cause cell lesion on the fifth day after infection. […] It should be emphasized that, when the compound is poorly water-soluble and can only be dissolved in DMSO, the ratio of DMSO to water is generally below 10% (the final concentration of DMSO in MT-4 cell culture media is smaller than 2%). Because DMSO can influence the anti-virus activity of the tested compounds, blank tests on the solution containing the same concentration of DMSO should be conducted in parallel. Additionally, the final concentration of DMSO is far below the concentration required to influence the replication of HIV-1 in T cells.
row,SMILES,"SI (Selectivity index, the ratio of CC50/IC50)"
1,Cc1cc2ccccc2cc1Oc1ccnc(Nc2ccc(C#N)cc2)n1 [Compound 11],30941
2,Cc1cnc(Nc2ccc(C#N)cc2)nc1Oc1cccc2cccnc12 [Compound 5],3432
3,COc1nc(Nc2ccc(C#N)cc2)nc(Oc2cccc3cccnc23)c1C [Compound 8],1787
4,Cc1c(Cl)nc(Nc2ccc(C#N)cc2)nc1Oc1cccc2cccnc12 [Compound 6],1740
5,N#Cc1ccc(Nc2nccc(Oc3ccc4cc(C#N)ccc4c3)n2)cc1 [Compound 14],20548
6,CNc1nc(Nc2ccc(C#N)cc2)nc(Oc2cccc3cccnc23)c1C [Compound 7],2312
7,N#Cc1ccc(Nc2nccc(Oc3ccc4cc(Br)ccc4c3Br)n2)cc1 [Compound 13],11099
8,Cc1c(Oc2ccnc(Nc3ccc(C#N)cc3)n2)ccc2ccccc12 [Compound 10],32981
9,CCc1c(NC)nc(Nc2ccc(C#N)cc2)nc1Oc1ccc2cc(C#N)ccc2c1Br [Compound 18],49020
10,CC(C)c1c(Cl)nc(Nc2ccc(C#N)cc2)nc1Oc1ccc2cc(C#N)ccc2c1 [Compound 9],8711
11,Cc1cc2ccccc2c(C)c1Oc1ccnc(Nc2ccc(C#N)cc2)n1 [Compound 12],76436
12,N#Cc1ccc(Nc2nccc(Oc3cc4ccc(C#N)cc4cc3Br)n2)cc1 [Compound 16],50357
13,CNc1nc(Nc2ccc(C#N)cc2)nc(Oc2ccc3ccccc3c2Br)c1C [Compound 17],11494
14,N#Cc1ccc(Nc2nccc(Oc3ccc4cc(C#N)ccc4c3Br)n2)cc1 [Compound 15],181247
15,CNc1nc(Nc2ccc(C#N)cc2)nc(Oc2ccc3cc(C#N)ccc3c2)c1C(C)C [Compound 19],34868

# Same assay, conditions: Table 3
row,SMILES,"SI (Selectivity index, the ratio of CC50/IC50)"
1,CCOc1cc(C#N)cc(OC)c1Oc1nc(Nc2ccc(C#N)cc2)nc2ccccc12 [Compound 52],>50129
2,N#Cc1ccc(Nc2nc(Oc3c(Br)cc(Br)cc3Br)c3ccccc3n2)cc1 [Compound 34],3087
3,CCOc1cc(C#N)cc(Cl)c1Oc1nc(Nc2ccc(C#N)cc2)nc2ccccc12 [Compound 49],>10692
4,COc1cc(C#N)cc(Cl)c1Oc1nc(Nc2ccc(C#N)cc2)nc2ccccc12 [Compound 48],>30899
5,Cc1cc(C)c(Oc2nc(Nc3ccc(C#N)cc3)nc3ccccc23)c(C)c1 [Compound 36],>1484
6,COc1cc(C#N)cc(OC)c1Oc1nc(Nc2ccc(C#N)cc2)nc2ccccc12 [Compound 41],>42311
7,Cc1cc(C)c(Oc2nc(Nc3ccc(C#N)cc3)nc3ccc(Cl)cc23)c(C)c1 [Compound 54],81672
8,N#Cc1ccc(Nc2nc(Oc3ccc(Cl)cc3)c3ccccc3n2)cc1 [Compound 40],>2369
9,Cc1cc(C#N)ccc1Oc1nc(Nc2ccc(C#N)cc2)nc2ccccc12 [Compound 33],>11893
10,CCOc1cc(C#N)cc(OCC)c1Oc1nc(Nc2ccc(C#N)cc2)nc2ccccc12 [Compound 46],>34239
11,N#Cc1ccc(Nc2nc(Oc3ccccc3Cl)c3ccccc3n2)cc1 [Compound 39],6018
12,Cc1cc(C#N)cc(C)c1Oc1nc(Nc2ccc(C#N)cc2)nc2ccccc12 [Compound 45],>47832
13,N#Cc1ccc(Nc2nc(Sc3ccccc3)c3ccccc3n2)cc1 [Compound 44],657
14,Cc1cc(Br)c(Oc2nc(Nc3ccc(C#N)cc3)nc3ccccc23)c(Br)c1 [Compound 35],1563
15,N#Cc1ccc(Nc2nc(Oc3c(Cl)cc(Cl)cc3Cl)c3ccccc3n2)cc1 [Compound 42],69833
16,"Cc1cn([C@H]2C[C@H](N=[N+]=[N-])[C@@H](CO)O2)c(=O)[nH]c1=O [DDN/AZT, reference compound]",>18094
17,Cc1cccc(C)c1Oc1nc(Nc2ccc(C#N)cc2)nc2ccccc12 [Compound 43],>13902
18,N#Cc1ccc(Nc2nc(Oc3ccc(F)cc3)c3ccccc3n2)cc1 [Compound 38],1987
19,COc1cc(C#N)cc(OC(C)C)c1Oc1nc(Nc2ccc(C#N)cc2)nc2ccccc12 [Compound 50],>9823
20,N#Cc1ccc(Nc2nc(Oc3ccc(Cl)cc3Cl)c3ccccc3n2)cc1 [Compound 37],4068
21,CCCOc1cc(C#N)cc(OCC)c1Oc1nc(Nc2ccc(C#N)cc2)nc2ccccc12 [Compound 47],>20842
22,N#Cc1ccc(Nc2nc(S(=O)(=O)c3ccccc3)c3ccccc3n2)cc1 [Compound 51],>365
